The target in this experiment is T1, BDBV GP (Bundibugyo ebolavirus (BDBV)).
T1 construct: also called Bundibugyo ebolavirus GP
Briefly: ELISA, purified antibody on coated GP (1 µg/mL). (ELISA stands for enzyme-linked immunosorbent assay.)

B1: monoclonal antibody 2G1 (antibody, V domains shown)
VH: EVQLVESGGGLVKRGGSLRLSCVVSGYTFGGYSMHWVRQAPGKGLEWVSGISSSSYYKYYADSVKGRFTISRDNAKNSLYLQMNSLRAEDTAVYYCARDMGYCSGGSCPNFDFWGQGTTVTVSS
VL: DIQMTQSPSSLSASVGDRVTITCRTSQSISNYLNWYQQIPGKAPKLLISTASNLHSGVSSRFSGSGSGTHFTLTISSLQPEDFATYYCQQSYSTPSFGQGTKVEIKR
notes: also called 2G1-WT; wild-type 2G1
B1 had an EC50 of 7.5 ng/mL.

For orientation: EC50 means the concentration at which the effect is half-maximal.

(Values after patent US20240254201A1 (ACADEMY OF MILITARY MEDICAL SCIENCE PLA, published 2024).)
